Measured values from patent US12329823B2 (The Scripps Research Institute, priority 2021, dated 2025).
Some peptides are written in HELM: one residue between dots, names in brackets for other building blocks, links after the first $. Numbered stars: 1 amine (or outer) side, 2 acyl side, 3 side chain; on linkers, the order of the positions; unused ones are H or OH. Bridge positions count the residues as written; N and C are the ends. Square brackets hold non-standard residues; d marks the D form. X1 = O=C(O)CCCCCCCCCCCCCCCCC(=O)N[C@@H](CCCCNC(=O)CCOCCOCCNC(=O)CCOCCOCCNC(=O)CCC(=O)N(CCNC(=O)C[*:1])CCNC(=O)C[*:2])C(=O)O; Aib = CC(C)(N)C(=O)O

Test: general procedure: Fmoc solid-phase peptide synthesis; 2-chlorotrityl chloride resin (Novabiochem; Sub 1.00 mmol/g); Fmoc Rink amide MBHA-type resin (Sub 0.28 mmol/g); HBTU/DIEA; HATU/DIEA
Conditions: cyclisation step, HOAc

## H-Y[Aib]EGTFTSDYSIYCDKQAA[Aib]CFVNWLIAGGPSSGAPPPS-NH2 (linker 14-21 via X1; N-terminus assumed; SMILES CC[C@H](C)[C@H](NC(=O)[C@H](CC(C)C)NC(=O)[C@H](Cc1c[nH]c2ccccc12)NC(=O)[C@H](CC(N)=O)NC(=O)[C@@H](NC(=O)[C@H](Cc1ccccc1)NC(=O)[C@@H]1CSCC(=O)NCCN(C(=O)CCC(=O)NCCOCCOCCC(=O)NCCOCCOCCC(=O)NCCCC[C@H](NC(=O)CCCCCCCCCCCCCCCCC(=O)O)C(=O)O)CCNC(=O)CSC[C@H](NC(=O)[C@H](Cc2ccc(O)cc2)NC(=O)[C@@H](NC(=O)[C@H](CO)NC(=O)[C@H](Cc2ccc(O)cc2)NC(=O)[C@H](CC(=O)O)NC(=O)[C@H](CO)NC(=O)[C@@H](NC(=O)[C@H](Cc2ccccc2)NC(=O)[C@@H](NC(=O)CNC(=O)[C@H](CCC(=O)O)NC(=O)C(C)(C)NC(=O)[C@@H](N)Cc2ccc(O)cc2)[C@@H](C)O)[C@@H](C)O)[C@@H](C)CC)C(=O)N[C@@H](CC(=O)O)C(=O)N[C@@H](CCCCN)C(=O)N[C@@H](CCC(N)=O)C(=O)N[C@@H](C)C(=O)N[C@@H](C)C(=O)NC(C)(C)C(=O)N1)C(C)C)C(=O)N[C@@H](C)C(=O)NCC(=O)NCC(=O)N1CCC[C@H]1C(=O)N[C@@H](CO)C(=O)N[C@@H](CO)C(=O)NCC(=O)N[C@@H](C)C(=O)N1CCC[C@H]1C(=O)N1CCC[C@H]1C(=O)N1CCC[C@H]1C(=O)N[C@@H](CO)C(N)=O)
  cyclisation yield: 58.15%
HPLC, LC-QTOF with UV detection at 214 nm
  final HPLC purity: 96.85%
